For at least one entry, the source does not settle the construct or the ends of the probe.
Tested on: AvaI restriction endonuclease
Test: enzyme reaction in vitro
Conditions: 5'-FAM, ROX at T11; alpha-thio dCTP incorporated in the complementary strand; SDA with 100 and 1000 targets; 6 mM MgOAc, 40 mM K phosphate pH 7.5, 53-54 C, Bst polymerase present; purified native protein; protein details: New England BioLabs; label: FAM/ROX

Sequence: TAGCCTCGAGTAGAGTCTTCAAATATCAGAGCTTTACCTAACAA (double strand)
- activity on this sequence: active

Reference: patent publication US6054279
